A mixed list of measured activities; the numbers were collected in NIAID ChemDB.

Shared fields: whole-cell or culture tests; organism: Cryptococcus neoformans

Conditions beyond the fields shown may differ between rows. A number after MIC or MFC names an inhibition level or a share of isolates. An empty or dashed field is not shown.

smiles,strain or isolate,read by,read-out,result
C[C@@H](n1cnc2cc(Cl)ccc2c1=O)[C@](O)(Cn1cncn1)c1ccc(F)cc1F,Isolate 251.86,-,MFC,20 µg/mL
C[C@@H](c1ncncc1F)[C@](O)(Cn1cncn1)c1ccc(F)cc1F,B 35735,broth dilution,MIC,0.031 µg/mL
C[C@@H](c1ncncc1F)[C@](O)(Cn1cncn1)c1ccc(F)cc1F,Clinical isolate (IM 983036),broth dilution,MIC,<0.015 µg/mL
Oc1ccccc1N=Cc1ccc2c(c1)OCO2,LMM 820,-,MIC99,4 µg/mL
C[C@H]1[C@H](O)[C@@H](C)/C=C/C=C/C=C/C=C/C=C/C=C/C=C/[C@H](O[C@@H]2O[C@H](C)[C@@H](O)[C@H](N)[C@@H]2O)C[C@@H]2O[C@](O)(C[C@@H](O)C[C@@H](O)CC[C@H](O)[C@@H](O)C[C@@H](O)CC(=O)O[C@H]1C)C[C@H](O)[C@H]2C(=O)O,A28201,-,MIC,0.25 µg/mL
Oc1ccccc1N=Cc1ccccc1,ATCC 62066,broth dilution,MIC,2 µg/mL
CN[C@H]1CC[C@@H](c2ccc(Cl)c(Cl)c2)c2ccccc21,92C,broth dilution,MIC90,4 µg/mL
O=C1/C(=C/c2ccc3ccccc3c2)CSc2ccccc21,93/V,-,MIC,25 µg/mL
CCOC(=O)c1cnc(NCCCCNc2ccnc3cc(Cl)ccc23)nc1C,27JF,-,MIC99,16 µg/mL
Cn1nc(Cc2ccc(Cl)cc2)c2ccccc2c1=O,Clinical isolate (IM 031631),broth dilution,MIC80,31.3 µg/mL
COc1cc(/C=C2\COc3ccccc3C2=O)ccc1O,25,-,MIC,12.5 µg/mL
C[C@@H]([C@@](O)(Cn1cncn1)c1ccc(F)cc1F)S(C)(=O)=O,R717 (AZOLE-R),-,MIC,>1000 µM
O=C1/C(=C/c2ccccc2[N+](=O)[O-])CCc2ccccc21,93/V,-,MIC,100 µg/mL
Oc1ccccc1N=Cc1cccc(O)c1O,WP,broth dilution,MIC,2.8 µg/mL
O=C1/C(=C/c2ccc(F)cc2)CCc2ccccc21,25,-,MIC,25 µg/mL
Oc1ccccc1N=Cc1ccc(F)cc1,5396,broth dilution,MIC,8 µg/mL
COc1ccc(/C=C2\COc3ccc(SC)cc3C2=O)cc1,Farwania,-,MIC,12.5 µg/mL
CCOC(=O)c1c(C)nc(NCCCCNc2ccnc3cc(Cl)ccc23)nc1-c1ccccc1,ATCC 24067,-,MIC,5.7 µg/mL
COc1ccc(/C=C2\CSc3ccccc3C2=O)cc1,25,-,MIC,3 µg/mL
Oc1cccc(C=Nc2ccccc2O)c1,27JF,-,MIC99,4 µg/mL
CC[C@@H]([C@H](C)O)n1ncn(-c2ccc(N3CCN(c4ccc(OC[C@@H]5CO[C@@](Cn6cncn6)(c6ccc(F)cc6F)C5)cc4)CC3)cc2)c1=O,DUMC100.91,-,MIC,0.125 µg/mL
COc1ccc2c(c1)C(=O)/C(=C/c1ccc3c(c1)OCO3)CS2,93/V,-,MIC,25 µg/mL

A second listing of 2 rows from above:

{"smiles": "C[C@H]1[C@H](O)[C@@H](C)/C=C/C=C/C=C/C=C/C=C/C=C/C=C/[C@H](O[C@@H]2O[C@H](C)[C@@H](O)[C@H](N)[C@@H]2O)C[C@@H]2O[C@](O)(C[C@@H](O)C[C@@H](O)CC[C@H](O)[C@@H](O)C[C@@H](O)CC(=O)O[C@H]1C)C[C@H](O)[C@H]2C(=O)O", "strain or isolate": "A28201", "read-out": "MIC", "result": "0.25 µg/mL"}
{"smiles": "COc1ccc(/C=C2\\CSc3ccccc3C2=O)cc1", "strain or isolate": "25", "read-out": "MIC", "result": "3 µg/mL"}